Results of unrelated studies side by side (data: NIAID ChemDB).

All rows: target-level tests

Two numbers with a dash give a range or band. ICn is the concentration giving n% inhibition. Lines come from different laboratories, so protocols vary. Percent inhibition refers to the dose given; in toxicity tests it is the harm to the cells. An empty or dashed field is not shown.

| smiles | tested at | target | agent | read-out | result |
|---|---|---|---|---|---|
| CCN(C)c1cc2oc(-c3ccc(F)cc3)c(C(=O)NC)c2c(Cl)c1OC | - | Nonstructural protein 5B | Hepatitis C virus | IC50 | ≤0.5 µM |
| COc1cccc(-c2nc(C(=O)O)c(O)c(=O)[nH]2)c1 | - | HCV polymerase | Hepatitis C virus | IC50 | <100 µM |
| COc1nc(Nc2ccc3cn[nH]c3c2)nc(NC2CC2)n1 | 0.01 µg/mL | DNA polymerase | Hepatitis B virus | inhibition | 3% |
| CC(C)C[C@H](NC(=O)[C@H](CCC(N)=O)NC(=O)[C@@H](NC(=O)CCC(=O)O)C1CCCCC1)C(=O)N[C@@H](CS)C(=O)O | 167 µM | Nonstructural protein 3 NTPase/helicase | Hepatitis C virus | inhibition | 97% |
| O=C1CN(c2c(-c3ccc(OCc4ccccc4)cc3)cnc3c(-c4nn[nH]n4)cnn23)CCN1 | - | RNA-dependent RNA polymerase | Hepatitis C virus | IC50 | >10 µM |
| CC[C@H](C)[C@H](NC(=O)[C@H](CC(C)C)NC(=O)CCC(=O)O)C(=O)N[C@@H](CC1CCCCC1)C(=O)NC1(C(=O)O)CC1 | 83.5 µM | Nonstructural protein 3 NTPase/helicase | Hepatitis C virus | inhibition | 7% |
| CCOC(=O)C1CCN(c2nc(Nc3ccc4[nH]ncc4c3)nc(OC)n2)CC1 | 0.1 µg/mL | DNA polymerase | Hepatitis B virus | inhibition | 36% |
| O=C(Nc1ccccc1-c1nc(C(=O)O)c(O)c(=O)[nH]1)c1ccccc1 | - | HCV polymerase | Hepatitis C virus | IC50 | <100 µM |
| COC(=O)[C@@H]1CCCN1c1nc(Nc2ccc3cn[nH]c3c2)nc(OC)n1 | - | DNA polymerase | Hepatitis B virus | IC50 | 0.1–1 µg/mL |
| CNC(=O)c1c(-c2ccc(F)cc2)oc2cc(N(CC(O)c3ccc(F)cc3)S(C)(=O)=O)c(O)cc12 | - | Nonstructural protein 5B | Hepatitis C virus | IC50 | ≤0.5 µM |
| COc1nc(Nc2ccc3cn[nH]c3c2)nc(N2CCCC2)n1 | 1 µg/mL | DNA polymerase | Hepatitis B virus | inhibition | 63% |
| Cc1nn(CC(=O)Nc2ccsc2-c2nc(C(=O)O)c(O)c(=O)[nH]2)c(=O)c2ccccc12 | - | HCV polymerase | Hepatitis C virus | IC50 | <25 µM |
| O=C(O)CCC(=O)N[C@H](C(=O)N[C@@H](CCC(=O)O)C(=O)N[C@@H](CCC(=O)O)C(=O)NC1(C(=O)O)CC1)C1CCCCC1 | 167 µM | Nonstructural protein 3 NTPase/helicase | Hepatitis C virus | inhibition | 54% |
| COc1ccccc1-c1cc(-c2ccc(C(F)(F)F)cc2)nc2cc(C(=O)O)nn12 | - | RNA-dependent RNA polymerase | Hepatitis C virus | IC50 | >10 µM |
| CNC(=O)c1c(-c2ccc(F)cc2)oc2cc(N(CS(C)(=O)=O)c3ccncc3)c(OC)cc12 | - | Nonstructural protein 5B | Hepatitis C virus | IC50 | ≤0.5 µM |
| CC(NC(=O)Nc1cscc1-c1nc(C(=O)O)c(O)c(=O)[nH]1)c1cscn1 | - | HCV polymerase | Hepatitis C virus | IC50 | <25 µM |
| O=C(O)CCC(=O)N[C@H](C(=O)N[C@@H](CCC(=O)O)C(=O)N[C@@H](CCC(=O)O)C(=O)N[C@@H](CS)C(=O)O)C(c1ccccc1)c1ccccc1 | 167 µM | Nonstructural protein 3 NTPase/helicase | Hepatitis C virus | inhibition | 100% |
| CCOC(=O)N1CCN(c2nc(Nc3ccc4[nH]ncc4c3)nc(OC)n2)CC1 | 1 µg/mL | DNA polymerase | Hepatitis B virus | inhibition | 43% |
| CNC(=O)c1cc2nc(-c3ccc(Cl)cc3)cc(-c3ccc(Oc4ccccc4)cc3)n2n1 | - | RNA-dependent RNA polymerase | Hepatitis C virus | IC50 | >10 µM |
| COc1nc(NCCCn2ccnc2)nc(Nc2ccc3[nH]ncc3c2)n1 | 0.1 µg/mL | Nonstructural protein 5B | Hepatitis C virus | inhibition | 43% |
| O=C(Nc1ccsc1-c1nc(C(=O)O)c(O)c(=O)[nH]1)OCc1c(Cl)cccc1Cl | - | HCV polymerase | Hepatitis C virus | IC50 | <25 µM |
| O=C(O)c1cc2nc(-c3cccc(Cl)c3)cc(-c3ccc(Cl)cc3Cl)n2n1 | - | RNA-dependent RNA polymerase | Hepatitis C virus | IC50 | >10 µM |
| O=C(O)c1nc(-c2ccccc2NS(=O)(=O)c2ccccc2F)[nH]c(=O)c1O | - | HCV polymerase | Hepatitis C virus | IC50 | <100 µM |
| O=C(O)CCC(=O)N[C@H](C(=O)N[C@@H](CCC(=O)O)C(=O)N[C@@H](Cc1ccc2ccccc2c1)C(=O)N[C@@H](CS)C(=O)O)C(c1ccccc1)c1ccccc1 | 1.67 µM | Nonstructural protein 3 NTPase/helicase | Hepatitis C virus | inhibition | 3% |
| O=C(NCc1ccccc1F)Nc1cscc1-c1nc(C(=O)O)c(O)c(=O)[nH]1 | - | HCV polymerase | Hepatitis C virus | IC50 | <25 µM |
| O=C(O)CCC(=O)N[C@H](C(=O)N[C@@H](CCC(=O)O)C(=O)N[C@@H](Cc1ccc2ccccc2c1)C(=O)N[C@@H](CS)C(=O)O)C1CCCCC1 | 1.67 µM | Nonstructural protein 3 NTPase/helicase | Hepatitis C virus | inhibition | 50% |
| COc1nc(NCCc2ccccn2)nc(Nc2ccc3[nH]ncc3c2)n1 | - | DNA polymerase | Hepatitis B virus | IC50 | 0.1–1 µg/mL |
| CC[C@H](C)[C@H](NC(=O)[C@@H](NC(=O)CCC(=O)O)C1CCCCC1)C(=O)N[C@@H](CC1CCCCC1)C(=O)NC1(C(=O)O)CC1 | - | Nonstructural protein 3 NTPase/helicase | Hepatitis C virus | IC50 | <167 µM |
| CNC(=O)c1c(-c2ccc(F)cc2)oc2cc(N(Cc3nc(C(=O)O)cs3)S(C)(=O)=O)c(OC(C)C)cc12 | - | Nonstructural protein 5B | Hepatitis C virus | IC50 | ≤0.5 µM |
| O=C(Nc1ccsc1-c1nc(C(=O)OCCN2CCOCC2)c(O)c(=O)[nH]1)c1ccccc1 | - | HCV polymerase | Hepatitis C virus | IC50 | <50 µM |
| O=Cc1cnn2c(C3CCCCC3)c(-c3ccc(OCc4ccccc4)cc3)cnc12 | - | RNA-dependent RNA polymerase | Hepatitis C virus | IC50 | >10 µM |
| COc1nc(NCCCN2CCCC2=O)nc(Nc2ccc3cn[nH]c3c2)n1 | 1 µg/mL | DNA polymerase | Hepatitis B virus | inhibition | 43% |
| CNC(=O)c1c(-c2ccc(F)cc2)oc2cc(N(C)S(C)(=O)=O)c(OCc3csc(C)n3)cc12 | - | Nonstructural protein 5B | Hepatitis C virus | IC50 | ≤0.5 µM |
| COc1nc(Nc2ccc3[nH]ncc3c2)nc(N2CCC(O)CC2)n1 | - | DNA polymerase | Hepatitis B virus | IC50 | >1 µg/mL |
| CNC(=O)c1c(-c2ccc(F)cc2)oc2cc(S(=O)(=O)N3CCOCC3)c(OC(C)C)cc12 | - | Nonstructural protein 5B | Hepatitis C virus | IC50 | ≤0.5 µM |

For reference, 4 entries again:

smiles | tested at | target | agent | read-out | result
O=C(O)CCC(=O)N[C@H](C(=O)N[C@@H](CCC(=O)O)C(=O)N[C@@H](CCC(=O)O)C(=O)NC1(C(=O)O)CC1)C1CCCCC1 | 167 µM | Nonstructural protein 3 NTPase/helicase | Hepatitis C virus | inhibition | 54%
O=C(O)CCC(=O)N[C@H](C(=O)N[C@@H](CCC(=O)O)C(=O)N[C@@H](Cc1ccc2ccccc2c1)C(=O)N[C@@H](CS)C(=O)O)C(c1ccccc1)c1ccccc1 | 1.67 µM | Nonstructural protein 3 NTPase/helicase | Hepatitis C virus | inhibition | 3%
CNC(=O)c1c(-c2ccc(F)cc2)oc2cc(N(Cc3nc(C(=O)O)cs3)S(C)(=O)=O)c(OC(C)C)cc12 | - | Nonstructural protein 5B | Hepatitis C virus | IC50 | ≤0.5 µM
COc1ccccc1-c1cc(-c2ccc(C(F)(F)F)cc2)nc2cc(C(=O)O)nn12 | - | RNA-dependent RNA polymerase | Hepatitis C virus | IC50 | >10 µM